# US20230381077A1, “Antibacterial And Deodorizing Composition, And Preparation Method Therefor” (LG Chem, Ltd., priority 2021, published 2023)
# Key:
# Proteus mirabilis = assay: Antibacterial power measurement of first compound (bacterial inhibition rate, broth, absorbance 600 nm); format: cell-based; details: 0.01 g first compound in 25 ml broth, 3,000 CFU/ml, 35° C. for 16 hours
# E. coli = assay: as above; format: cell-based; details: 0.01 g first compound in 25 ml broth, 3,000 CFU/ml, 35° C. for 16 hours
smiles,measurement,setting,value
CCCCCCCCCCCC[N+](C)(CCO)CCO,Bacterial inhibition rate (%) Proteus mirabilis,Proteus mirabilis,99.9%
same,Bacterial inhibition rate (%) E. Coli,E. coli,99.1%
